Our source for the EC50 values is US20240150396A1 (The Texas A&M University System, priority 2021, published 2024).

For part of its entries the source gives two or more results. They are shown here; other results are not. There may be further records. The values listed for one entry differ, and nothing given here explains why; they may come from other doses, times, organisms or constructs than stated.

Assay [1] deals with SARS-CoV-2 in Vero E6 cells. The experiment in a line: Anti-CoV-2 activity in Vero E6 cells. Format: cell-based. Conditions: read-out: Anti-CoV-2 EC50 Vero E6 Cells.
Assay [2] concerns T. cruzi epimastigotes (strain Y). The experiment in a line: Growth of axenic cultures of T. cruzi epimastigotes. The conditions noted are these: read-out: T. cruzi axenic culture EC50.

For the compound `CN1CCN(C(=O)N[C@@H](Cc2ccccc2)C(=O)N[C@H]2Cc3ccccc3OC2O)CC1` (some centres unmarked), the concentration giving a half-maximal response (EC50) in assay [1] is 7.5 µM and 2.5 µM to 7.5 µM.
For the compound `CN1CCN(C(=O)N[C@@H](Cc2ccccc2)C(=O)N[C@H](/C=C/S(=O)(=O)c2ccccc2)CCc2ccccc2)CC1` [Compound K11777, reference compound], in assay [2], the EC50 is > 20 µM and 60 µM.

For orientation: EC50 means the concentration at which the effect is half-maximal.
